Laboratory results published in US20250382354A1 (INSTITUTE FOR RESEARCH IN BIOMEDICINE IRB, published 2025).
Numbering of substitutions follows the chain as printed.

B1: fp.002 (antibody, V domains shown)
VH: VQLVESGGGVVQPGTSLRLSCAGSGFNFDNYAIHWVRQAPGQGLEWVAIISYEARNKKYAGSVTGRFSISRDNSKSMVYLQMDSLRGEDTAVYYCARDLFLSDYDRSGYDPTRGGFDLWGQGTLVTVSS
VL: EIVMTQSPATLSVSPGERATLSCRASQSVSSSLAWYQHKLGQAPRLLIYGASTRATGIPGRFSGSGSGTEFTLTISSLQSEDVAIYYCQQYGDWPLVTFGGGTKVEIK
B2: fp.003 (antibody, V domains shown)
VH: VQLVESGGGVVQPGTSLRLSCTASGFSFSNYAMHWVRQAPGKGLEWVAIISFDTRNKEFADSVKGRFSISRDNSKNSLNLQMNSLRPEDTGVYYCARDLFLSDYDSRGYEPSRGGFDYWGQGTLVTVSS
VL: B1 VL with H38Q, A43P, G60A, Q79K, V83S, I85V, G92N, V97L, T98S
B3: fp.004 (antibody, V domains shown)
VH: VQLVESGGGVVQPGTSLRLSCVASGFTFSNYAMHWVRQAPGKGLEWVAIISFDTRNTASAASVKGRFNISRDNSKNSLYLQMNSLRPEDTGVYYCARDLFLSDYDSRGYDPITGGFDCWGQGTLVTVSS
VL: EIVMTQSPAALSVSPGEGATLSCRASQSVGSRLAWYQQKLGRPPRLLIYGASTRATGIPARFSGSGSGTEFTLTISSLQSEDFAVYYCQQYNDWPLLTFGGGTKVKIK
B4: fp.001 (antibody, V domains shown)
VH: VQLVESGGGVVQPGRPLRLSCSGSGFIFSNYAMHWVRQAPGKGLEWVAIISFDARNKRYADSVEGRFTISRDNSKNILYLQMNSLRLEDSAVYFCARDLFLSDYDNGVYDPTRGGFDYWGQGTLVTVSS
VL: EIVMTQSPATLSLSPGERATLSCRASQSVNNRLAWYQQKLGQPPRLLISGASTRATGIPARFTGSGSGTEFTLTISSLQSEDFAVYYCQQYHDWPLLSFGGGTKVEIK
B5: fp.005 (antibody, V domains shown)
VH: VQLVESGGGVVQPGNSLRLSCAASGFRFNNYAMHWVRQAPGKGLEWVAIISYEARNEKYADSVKGRFSISRDNAKNTLYLQMNSLRADDTGVYYCARDLFLSDYDTSGYDRTRGGFDYWGQGALVTVSS
VL: B1 VL with S31N, S32G, K39R, L40F, A43P, G60T, V83F, I85V, G92D, V97I
B6: fp.008 (antibody, V domains shown)
VH: VQLVESGGGVVQPGRSLRLSCRASGFRFNNYAMHWVRQAPGKGLEWVAIISYEARNEKYAASVKGRFSISRDNAKNTLYLQMNSLRPEDTAIYYCARDVFLSDYDQSGYDVTRGGFDYWGQGTLVTVSS
VL: B1 VL with R18S, L40F, G60D, T69M
B7: hr2.012 (antibody, V domains shown)
VH: QVQLVQSGAEVKKPGASVKVSCKASGYTFTSHYIHWVRQAPGQGLEWMGIIKPSGGNTIYAQTFQGRVTMTRDTSTSTVYMELRSLTSDDTAVYYCARDQDHGLQRWGQGTLVTVSS
VL: QSVLTQPPSVSAPPGQKVTISCSGSSSNIGNNFVSWYQQLPGTAPKLLIYDNIERPSGIPDRFSGSRSGTSATLGITGLQTGDEADYYCGTWDTSLGAWVFGGGTKVTVL
B8: hr2.013 (antibody, V domains shown)
VH: QVQLVQSGAEVKKPGASVKISCKASGYTFTNNYMNWVRQAPGQGLEWMGIIKPSSGSTIYAHKFQGRVTMTRDTSTSTVYMEVRSLTSEDTAVYYCARDQDHGLQNWGQGTLVTVSS
VL: B7 VL with P13A, P14S, S21Y, G30A, N31S, L40F, I53N, E54Q, V107L
B9: hr2.015 (antibody, V domains shown)
VH: QVQLVQSGAEVKKPGASVKVSCKASGYTFSSYYVNWVRQAPGQGLEWLGIINRSGSSTIYAQKFQGRVTMTRDTSTSTVYLELSSLRSEDTAVYYCARDQDHALHWGQGTLVTVSS
VL: B7 VL with P13A, N31S, F33Y, I53S, G97S, V107L

Molecular target: T1, CRCoV-240/05 FP peptide (CRCoV-240/05)
T1 construct: domain: FP peptide
Experiment: peptide ELISA

Row | Binder | EC50
1 | B1 | 0.0158 µg/mL
2 | B2 | 0.0266 µg/mL
3 | B3 | 0.0262 µg/mL
4 | B4 | 0.0319 µg/mL
5 | B5 | 0.0259 µg/mL
6 | B6 | 0.026 µg/mL

Molecular target: T2, CRCoV-240/05 HR2 peptide (CRCoV-240/05)
T2 construct: domain: HR2 peptide
Experiment: peptide ELISA

Row | Binder | EC50
7 | B7 | 0.0273 µg/mL
8 | B8 | 0.0573 µg/mL
9 | B9 | 0.0575 µg/mL

Molecular target: MERS S ectodomain (MERS)
Experiment: ELISA on coated S

Row | Binder | EC50
10 | B1 | 0.0508 µg/mL
11 | B2 | 0.0665 µg/mL
12 | B3 | 0.0649 µg/mL
13 | B4 | 0.0433 µg/mL
14 | B5 | 0.0513 µg/mL
15 | B6 | 0.0592 µg/mL
16 | B7 | 0.303 µg/mL
17 | B8 | 0.168 µg/mL
18 | B9 | 0.686 µg/mL
